The values below come from patent US7338977B2, “Anti-viral compounds” (Aids Care Pharma Limited, priority 2003, dated 2008).

The target of this assay is T1, viral envelope protein gp120 interaction with the cellular receptor protein CD4 (Human immunodeficiency virus type 1 group M subtype B, UniProt P04578).
T1 construct: viral envelope protein gp120
In kind it is binding, HIV. To be noted: concentration reducing gp120 interaction with CD4 by 50%; b100 says infected blood; read-out: Test 1 EC50. Here is the method:
Two tests were performed: Test 1 was performed using infected blood, while Test 2 used cell cultures.
All stocks solutions were made 25 mM in distilled water and tested at same concentrations.
The procedure was carried out as follows: • 1 Plastic plates were coated with cellular receptor protein CD4. • 2 The plates were washed well before adding a predetermined, appropriate quantity of viral envelope protein gp120 for binding to CD4. • 3 To see inhibition by compounds, different concentrations were added a few minutes before adding gp120. • 4 The mixture was incubated at 37° C. for binding. • 5 The plates were then flashed well and bound gp120 was detected by reaction with anti-HIV antibodies, incubated for 12 hours at 4° C. • 6 The amount of antibody bound was detected by adding anti-Human antibodies attached to an enzyme horse raddish peroxidase. • 7 After another incubation and wash, the quantity of the enzyme was measured by adding substrate o-phenyl diamine (OPD). • 8 The colour developed was read at 492 nm. • 9 All incubations took three days for adding different reagents. The percentage of inhibition by compounds, was calculated from the standard curve obtained by using different dilutions of gp120 alone. Test 2

As to “dodecapotassium acetate of p-bromopyrogallol P—F-phenyl tetramer [AC-1]”, the EC50 (in general, the concentration giving half of the maximal effect) was in the range of 500 to 1000 nM.
